Reference: patent US9474793B2 (The United States of America, as represented by the …, priority 2005, dated 2016)
End groups of sequences in plain letters are not given here.

Assay: general procedure: Fmoc solid-phase peptide synthesis
Conditions: whole synthesis, reverse phase HPLC

## VLYQYVDDV
  final HPLC purity: >97%
